According to patent publication US20190167593A1, “CYCLOHEXENE DERIVATIVE OR PHARMACEUTICALLY ACCEPTABLE SALT THEREOF, AND APPLICATION OF SAME” (priority 2016, published 2019):
pIC50: −log10 of the molar value.

Amino acid sequences for entries named in this document (tags omitted).
UniProt P03468, whole entry, looked up: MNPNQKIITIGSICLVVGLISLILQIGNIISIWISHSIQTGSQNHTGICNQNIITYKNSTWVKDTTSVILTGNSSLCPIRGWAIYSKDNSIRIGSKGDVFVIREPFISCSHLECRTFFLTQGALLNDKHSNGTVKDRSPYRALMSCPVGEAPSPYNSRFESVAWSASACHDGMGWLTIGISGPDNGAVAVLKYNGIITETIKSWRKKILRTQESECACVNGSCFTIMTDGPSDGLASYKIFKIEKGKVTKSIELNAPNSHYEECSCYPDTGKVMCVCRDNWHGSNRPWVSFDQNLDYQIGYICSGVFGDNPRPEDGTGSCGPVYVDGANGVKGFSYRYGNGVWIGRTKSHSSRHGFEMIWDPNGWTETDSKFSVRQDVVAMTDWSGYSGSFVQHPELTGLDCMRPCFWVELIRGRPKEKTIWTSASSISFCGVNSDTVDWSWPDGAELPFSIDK

Target: influenza virus neuraminidase (NA), wild-type (Influenza A virus, UniProt P03468)
Assay type: biochemical
Settings: read-out: WIDE-TYPE IC50

Peramivir showed a pIC50 of 10.01.
